Measured values published in patent US20020013478A1, “Calanolide analogues and methods of their use” (Sarawak Medichem Pharmaceuticals,Inc., priority 1994, published 2002).
Marks after values point to notes of the source that are not given here.

Experiments:
[1] = test system: HCMV isolates Towne, AD169, E. Mann, Coffman, C9208; assay: Anti-CMV plaque reduction assay against various laboratory and clinical isolates (Example 40); assay type: cell-based, human cytomegalovirus; conditions: MTC/EC50
Experimental: On the date of assay, the drug is made up at twice the desired concentration in 2x MEM and then serially diluted 1:5 in 2x MEM using six concentrations of drug. The initial starting concentration is usually 200 gg/mL down to 0.06 μg/mL. […] The media is then aspirated from the wells and 0.2 mL of virus is added to each well in duplicate with 0.2 mL of media being added to drug toxicity wells. The plates are then incubated for one hour with shaking every fifteen minutes. […] This will give final drug concentrations beginning with 100 μg/mL and ending with 0.03 μg/mL and a final agarose overlay concentration of 0.5%. The drug agarose mixture is applied to each well in 2 mL volume and the plates then incubated for three days, after which the cells were stained with a 1.5% solution of neutral red. At the end of 4-6hr incubation period, the stain is aspirated, and plaques counted using a stereomicroscope at lOx magnification. The procedure again is nearly the same as for HSV with a few minor changes. […] The assay is incubated for 14 days with the additional 1 mL overlays being applied on days four and eight. The procedure for the liquid overlay plaque assay is similar to that using the agarose overlay. The procedure for adding the virus is the same as for the regular plaque assay. The drugs are made up in a concentration to be used in MEM with 2% FBS. The drugs are not made up at 2x concentration as in the previous assays but are made up at the desired concentration. For HSV-1 and HSV-2 assays, an antibody preparation obtained from Baxter Health Care Corporation is diluted 1:500 and added to the media that the drug is diluted in. For CMV and VZV, no antibody in the overlay is utilized. For the CMV assay, additional medium without new drug is added on day five and allowed to incubate for a total of 10 days. For VZV, additional medium is added on day five and incubated for a total of 10 days. At the end of the incubation period for all of the assays, 2 mL of 1:10 dilution of stock neutral is added to each well incubated for six hours. The liquid is then aspirated off and plaques enumerated using a stereomicroscope. Five calanolide analogues, prepared as described above, were further evaluated for their anti-HCMV activity in plaque reduction assay against various laboratory and clinical isolates (Towne, AD 169, E. Mann, Coffinan, and […]).

HIV-1 = conditions: IC50/EC50
HCMV = HCMV semi-automated CPE-inhibition assay in human foreskin fibroblast cells; assay type: cell-based, human cytomegalovirus; conditions: IC50/EC50
EBV = EBV assay: superinfection of Raji or Daudi cells with P3HR-1, immunofluorescence for EA and VCA; assay type: cell-based, Epstein-Barr virus; conditions: IC50/EC50
Text: There are two prototypes of infectious EBV. One is exemplified by the virus derived from supernatant fluids of the P3HR-1cell line. This cell line produces nontransforming virus that causes the production of early antigen (EA) after primary infection or superinfection of B cell lines. The other prototype is exemplified by the B-95-8 virus. This virus immortalized cord blood lymphocytes and induced tumors in marmosets.
The virus used in our assays is P3HR-1.
Ramos is an exceptional B cell line derived from Burkitt's lymphoma tumor but containing no detectable EBV genome copies and is EBNA negative. Ramos/AW was obtained by in vitro infection of Ramos with the P3HR-1 virus and contains one resident EBV genome copy/cell. Raji is a Burkitt's lymphoma cell line containing 60 EBV genomes/cell, and will be the primary cell used for screening antiviral activity against EBV EA expression. Daudi is a low level producer that contains 152 EBV genome copies/cell. It spontaneously expresses EBV EA in 0.25%-0.5% of the cells. It will be used in follow-up studies to confirm activity. These cell lines respond to superinfection by EBV by expressing EA(D), EA(R), and VCA. All cell lines are maintained in RPMI-1640 medium supplemented by 10% FCS, L-glutamine and 100 μg/mL gentamicin. The cultures are fed twice weekly and the cell concentration adjusted to 3×10^5/mL. The cells are kept at 37° C. in a humidified atmosphere with 5% CO2.
Cells are infected with the P3HR-1 strain of EBV and the drugs to be tested are added after adsorption (45 minutes at 37° C.) and washing of the cell cultures. The cultures are incubated for two days in complete medium to allow viral gene expression. Following the 48 hr incubation period, the number of cells of each sample are counted and smears made. Monoclonal antibodies to the different EA components and VCA are then added to the cells incubated and washed. This is followed by a fluorescein conjugated rabbit anti-mouse Ig antibody; and the number of fluorescence positive cells in the smears are counted. The total number of cells in the cultures positive for EA or VCA are then calculated and compared.

VZV = VZV plaque reduction assay in human foreskin fibroblast cells; assay type: cell-based, varicella zoster virus; conditions: IC50/EC50
Experimental: Two days prior to use, HFF cells are plated into six-well plates and incubated at 37° C. with 5% CO2 and 90% humidity. On the date of assay, the drug is made up at twice the desired concentration in 2x MEM and then serially diluted 1:5 in 2x MEM using six concentrations of drug. The initial starting concentration is usually 200 gg/mL down to 0.06 μg/mL. The virus to be used is diluted in MEM containing 10% FBS to a desired concentration which will give 20-30 plaques per well. The media is then aspirated from the wells and 0.2 mL of virus is added to each well in duplicate with 0.2 mL of media being added to drug toxicity wells. The plates are then incubated for one hour with shaking every fifteen minutes. After the incubation period, an equal amount of 1% agarose was added to an equal volume of each drug dilution. This will give final drug concentrations beginning with 100 μg/mL and ending with 0.03 μg/mL and a final agarose overlay concentration of 0.5%. The drug agarose mixture is applied to each well in 2 mL volume and the plates then incubated for three days, after which the cells were stained with a 1.5% solution of neutral red. At the end of 4-6hr incubation period, the stain is aspirated, and plaques counted using a stereomicroscope at lOx magnification.
The procedure is essentially the same as for the HSV plaque assay described above with two exceptions:
1. After addition of the drug, the plates are incubated for ten days.
2. On days three and six, an additional 1 mL overlay with equal amounts of 2x MEM and 1% agarose are added.

HBV = HBV replication in cultures of 2.2.15 cells, extracellular HBV virion DNA (primary assay); conditions: for HBV SI: IC50/EC50; for HBV Virion SI: SI is IC50/EC90
HBV RI = assay: HBV replication in 2.2.15 cells, intracellular DNA replication intermediates (secondary assay); conditions: SI is IC50/EC90

| Compound | TI ([1]; isolate AD169) | TI ([1]; isolate C9208) | TI ([1]; isolate Coffman) | TI ([1]; isolate E. Mann) | TI ([1]; isolate Towne) | TI (HIV-1) | HCMV SI (HCMV) | EBV SI (EBV) | VZV SI (VZV) | HBV SI (HBV) | HBV Virion SI (HBV) | HBV RI SI (HBV RI) |
| --- | --- | --- | --- | --- | --- | --- | --- | --- | --- | --- | --- | --- |
| CCCc1cc(=O)oc2c3c(c4c(c12)OC(C)(C)C=C4)OC(C)C(C)C3=O (racemic) [(±)-7, 10,11-trans-dihydro-4-propyl-6,6,10,11-tetramethyl-2H,6H,12H-benzo[1,2-b:3,4-b′:5,6-b″]-tripyran-2,12-dione] | 32 | 14 | >30 | 32 | >30 | 16 | – | – | – | – | – | – |
| CCCc1cc(=O)oc2c3c(c4c(c12)OC(C)(C)C=C4)OC(C)C(C)C3=O (racemic) [(±)-7a] | 3.2 | 3.8 | 3.2 | 3.2 | 3.2 | 4 | 132 | 1 | 2.4 | 1 | – | – |
| CCCc1cc(=O)oc2c3c(c4c(c12)OC(C)(C)C=C4)OC(C)C(C)(C)C3=O (racemic) [(±)-15a, (±)-10,11-Dihydro-6,6,10,11,11-pentamethyl-4-propyl-2H,6H, 12H-benzo[1,2-b:3,4-b′:5,6-b″]tripyran-2,12-dione] | – | – | – | – | – | – | <1 | – | – | 993^f | 89 | <60 |
| CCCc1cc(=O)oc2c3c(c4c(c12)OC(C)(C)C=C4)OCC(C)C3=O (racemic) [(±)-15f] | – | – | – | – | – | – | <1 | <1 | <3 | 400^e | 61 | 20 |
| CCCc1cc(=O)oc2c3c(c4c(c12)OC(C)(C)CC4)OC(C)C(C)C3=O (racemic) [(±)-18a, (±)-10,11-trans4-Propyl-7,8,10,11-tetrahydro-6,6,10,11-tetramethyl-2H,6H,12H-benzo [1,2-b:3,4-b′5,6-b″]tripyran-2,12-dione] | – | – | – | – | – | 4 | <5 | >2 | 2.2 | <9 | – | – |
| CCCc1cc(=O)oc2c3c(c4c(c12)OC(C)(C)C=C4)O[C@H](C)[C@@H](C)C3=O [(+)-7, 10(R),11(R)-trans-Dihydro6,6,10,11-tetramethyl-4-propyl-2H,6H,12H-benzo [1,2-b:3,4-b′:5,6-b″]tripyran-2,12-dione] | 32 | >20 | >21 | 22 | >20 | 107 | 435 | >53 | 1.8 | 8 | – | – |
| CCCc1cc(=O)oc2c(C(=O)[C@H](C)[C@@H](C)OC(C)=O)c(O)c3c(c12)OC(C)(C)C=C3 [(+)-10, 6,6Dimethyl-9-hydroxy-10-[2(R)-methyl-3(R)-acetoxybutyro]-4-propyl-2H,6H-benzo-[1,2-b:3,4-b′]dipyran-2-one] | – | – | – | – | – | 11 | – | – | – | – | – | – |
